{"source": "patent US20230250158A1", "about": "(TALEM THERAPEUTICS, published 2023)", "key": {"[1]": {"target": "Spike protein of authentic SARS-CoV-2 virus BetaCoV/Munich/BavPat1/2020 (D614G)", "test": "cell-based or functional assay"}, "S1-His(D614G) [2]": {"target": "S1-His(D614G) (SARS-CoV-2)", "test": "Octet BLI; […] steady-state analysis; n = 3"}, "S1-His(D614G) [3]": {"target": "S1-His(D614G) (SARS-CoV-2)", "test": "Octet BLI; […] steady-state analysis"}, "S1-His(D614G) [4]": {"target": "S1-His(D614G) (SARS-CoV-2)"}, "S1-His(D614G) [5]": {"target": "S1-His(D614G) (SARS-CoV-2)", "test": "Octet BLI classical sandwich; […]"}}, "note": "Where “and” joins values, the source holds several entries; their conditions need not be identical. Equal values may be shown once. Read-outs that look alike come from different tables or passages of the source."}
{"binder": "24-B8 (antibody, V domains shown) VH: QVQLVQSGAEVKKPGSSVKVSCKASGGTFSNYAISWVRQAPGQGLEWMGGIIPILDTTNYAQKFQGRVTITADESTSTAYMELNSLRSEDTAVYYCVREEGFDYWGQGTLVTVSS VL: QSVLTQPSSLSASPGASASLTCTLRSGINVGAYNIYWYQQKPGSPPQFVLRYNSDSDNQQGSGVPSRFSGSKDASANAGILLISGLQSEDEAEYYCMIWRSSAWVFGGGTKLTVL", "values": [{"measurement": "Live Virus IC50", "setting": "[1]", "value": "> 100", "unit": "µg/mL"}]}
{"binder": "22-E7 (antibody, V domains shown, also called bin C) VH: QVQLVESGGGVVQPGTSLRLSCAASGFTFNNYPMFWVRQAPGKGLEWLALISYDGNHKVYADSVKGRFTISRDNAKNTLYLQMHSLRAEDTALYYCASDLSGAEDSWGQGTLVTVSS VL: QSALTQPASVSGSPGQSITISCTGTSSDVGGYNYVSWYQQHPGKAPKLLIYEVSNRPSGVSNRFSGSKSGNTASLTISGLQAEDEADYYCSSYTSSSTWVFGGGTKLTVL", "values": [{"measurement": "Live Virus IC50", "setting": "[1]", "value": "> 100", "unit": "µg/mL"}, {"measurement": "Kd", "setting": "S1-His(D614G) [2]", "value": 207, "unit": "nM"}]}
{"binder": "23-A11 (antibody, V domains shown) VH: QVQLVESGGGVVQPGRSLRLSCAASGFTFSSYGMHWVRQAPGKGLEWVAVISYDGSNKYYADSVKGRFTISRDNSKNTLYLQMNSLRAEDTAVYYCAKEGELRGAFDIWGQGTMVTVSS VL: SYVLTQPPSVSVAPGKTARITCGGDNIESKYVHWYQQKPGQAPVLVIYYDTDRPSGIPERFSGANSGNSATLTISRVEAGDEADYYCQVWDRTSGHFVFGPGTKVTVL", "values": [{"measurement": "Live Virus IC50", "setting": "[1]", "value": "> 100", "unit": "µg/mL"}]}
{"binder": "30-C5 (antibody, V domains shown) VH: QVQLVESGGGVVQPGRSLRLSCAASGFTFSNYGMHWVRQAPGKGLEWVAVISYDGSIEYYADSVKGRFTISRDNSSNTLYLQMNSLRAEDTAVYYCARDEDGAFDIWGQGTTVTVSS VL: DIVMTQSPESLAVSLGERATINCKSSESVSYSSSNKNYLSWYQQIPGQPPKLLIYWASTRESGVPDRFSGSGSGTDFTLTISSLQAEDVAVYYCQQYYSSPLTFGGGTKVEIK", "values": [{"measurement": "Live Virus IC50", "setting": "[1]", "value": "> 100", "unit": "µg/mL"}]}
{"binder": "11-H1 (antibody, V domains shown) VH: not shown VL: QSVLTQPPSVSEAPRQRVTISCSGSSSNIGNNAVNWYQQLPGQAPRLLIYYDNLLPSGVSDRFSASTSGTSASLAISDLRSEDEADYYCASWDDRLDSPVFGGGTKLTVL", "values": [{"measurement": "Live Virus IC50", "setting": "[1]", "value": "> 100", "unit": "µg/mL"}]}
{"binder": "22-D9 (antibody, V domains shown, also called bin 4) VH: QVQLVQSGAEVKKPGSSVNVSCKTSGGTFNTYSINWVRQAPGQGLEWMGEIIPIFDKPNYAQKFQGRVTITADESTSTAYMELTSLRSDDTAVYYCARGTGYYYGMDVWGQGTTVTVSS VL: QSVLTQPPSVSGAPRQTVTISCFGSRSNIGNYPVNWYHQVPGKAPKVVVYYDDLLPSGISDRFSGYKSGTSASLTISGLRSEDEADYYCATWDDSLNVWVFGGGTKLTVL", "values": [{"measurement": "Live Virus IC50", "setting": "[1]", "value": "> 100", "unit": "µg/mL"}, {"measurement": "Kd", "setting": "S1-His(D614G) [3]", "value": "245 nM and 249 nM"}]}
{"binder": "27-A11 (antibody, V domains shown) VH: QVQLVQSGAEVKKPGASVKVSCKASGYTFTSYYMHWVRQAPGQGLEWMGIIDPSGGSTSYAQKFQGRVTLTRDTSTSTVYMELSSLRSEDTAVYYCARSRDGYIDDAFDIWGQGTLVTVSS VL: QSVLTQPPSVSAAPGQKVTISCSGSSSNIGNNYVSWYQQLPGTAPKLLIYDNNKRPSGIPDRFSGSKSGTSATLGITGLQTGDEADYYCGTWDSSLSAGVFGGGTKLTVL", "values": [{"measurement": "Live Virus IC50", "setting": "[1]", "value": "> 100", "unit": "µg/mL"}]}
{"binder": "22-E8 (antibody, V domains shown) VH: QVQLVQSGAEVKKPGSSVKVSCKASGGTFSSYAISWVRQAPGQGLEWMGGIIPIFGTTNYAQKFQGRVTITADESTSTAYMELSSLRSEDTAVYYCARDHGYYYGMDVWGQGTTVTVSS VL: QSVLTQPSSVSAAPRQRVTLSCSGGDSNIGQNGVNWYLHVPGKAPRLVVYYDYLVSAGMSARFSGSRSGTSASLAISGLQSEDEGVYYCASWDDSLSAWVFGGGTKLTVL", "values": [{"measurement": "Live Virus IC50", "setting": "[1]", "value": "> 100", "unit": "µg/mL"}]}
{"binder": "23-H7 (antibody, V domains shown, also called bin 2) VH: QVQLVQSGAEVKLPGASMKVSCKASGYTFSTYYMHWVRQAPGQGPEWMGVIDPSGGTTSYAQKFHDRIAMTRDTSTSTAYLELSSLRSEDMAVYYCARGGFADAVDYWGQGTLVTVSS VL: NFMLTQPHSVSGSPGKTVTISCTRNSGSIAGNYVQWYQQRPGSAPTTVIYEDNQRPSGVPDRFSGSIDSSSNSASLTISGLKTEDEADYYCQSYDASHLHVIFGGGTKVTVL", "values": [{"measurement": "Live Virus IC50", "setting": "[1]", "value": "> 100", "unit": "µg/mL"}, {"measurement": "Kd", "setting": "S1-His(D614G) [4]", "value": 15, "unit": "nM"}]}
{"binder": "8-A2 (antibody, V domains shown) VH: QVQLVQSGAEVKKPGASVKVSCKASGYTFTGYYLHWVRQAPGQGLEWMGRINPNSGGTNYAQKFQGRVTMTRDTSISTAYMELSRLTSDDTAVYYCLAVAGTGGDAFDIWGQGTTVTVSS VL: DIQMTQSPSTLSASVGDRVTITCRASQSISSWLAWYQQKPGKAPKLLIYAASSLESGVPSRFSGSGSGTDFTLTISSLQPEDFATYYCQQGHSFPLTFGGGTKVDIK", "values": [{"measurement": "Live Virus IC50", "setting": "[1]", "value": "> 100", "unit": "µg/mL"}]}
{"binder": "27-G3 (antibody, V domains shown) VH: QVQLVQSGAEVKKPGASVKLSCTASGYTFTSYYMHWVRQAPGQGLEWMGIIDPTGGSTSYAQKFQGRVTMTRDTSTSTVYMELSSLRSEDTAVYYCASAGVGNTFDYWGQGTLVTVSS VL: NFMLTQPHSVSASPGKTVTISCTRSSGSIARNYVQWYQQRPGRSPNILIFEDKQRPSGVPDRFSGSIDSSSNSASLTISGLKTEDEADYYCQSYDSSNQWVFGGGTKLTVL", "values": [{"measurement": "binding result", "setting": "S1-His(D614G) [5]", "value": "binds"}]}
{"binder": "21-F2 (antibody, V domains shown) VH: QVQLVQSGAEVKKPGASVTVSCKTSGYIFTNYDINWVRQAPGQGLEWVGWVNPNSGKVGYAQKFQGRVIMTRSDSESTAYMELTNLTSDDTAVYYCARGHTDFWGQGTLVTVSS VL: QSVLTQPPSVSEAPRQRVTISCSGSSSNIGNNAVNWYQQLPGRAPKLLIYYDDLLPSGVSDRFSGSKSGTSASLAISGLQSEDEADYYCAAWDDSLNGVVFGGGTQLTVL", "values": [{"measurement": "Live Virus IC50", "setting": "[1]", "value": 10.5, "unit": "µg/mL"}]}
{"binder": "22-F7 (antibody, V domains shown, also called bin C) VH: QVQLVESGGGVVQPGRSLRLSCAASGFSFTNYGMHWVRQAPGKGLEWVAVISYDGSIKYYEDSLKGRFTVSRDNSKKTLYLQMNSLRAEDTAVYYCTRERGTGIDYWGLGTLVTVSS VL: QSALTQPASVSGYPGQSITLSCTGTKSDIGAYNYVSWYQQHPGKAPKLMVYDVSNRPSGLSNRFSGSKSDNTASLTISGLQAEDEAHYYCSSYTTSGTVVFGGGTKVTVL", "values": [{"measurement": "Live Virus IC50", "setting": "[1]", "value": "> 100", "unit": "µg/mL"}, {"measurement": "Kd", "setting": "S1-His(D614G) [3]", "value": 144, "unit": "nM"}]}
{"binder": "13-A1 (antibody, V domains shown) VH: EVQLVQSGAEVKKPGESLKISCKGSGYSFTSYWIGWVRQMPGKGLEWMGIIYPGDSDTRYSPSFQGQVTISADKSISTAYLQWSSLKASDTAMYYCARYLSSEGMDVWGKGTTVTVSS VL: QSVLTQPPSASGTPGQRVTISCSGRSSNIGSNPVNWYQQLPGTAPKLLIYNNIQRPSGVPDRFSGSKSGTSASLAISGLQSEDEAVYYCASWDDSLNEGVFGGGTQLTVL", "values": [{"measurement": "Live Virus IC50", "setting": "[1]", "value": "> 100", "unit": "µg/mL"}]}
{"binder": "8-D4 (antibody, V domains shown) VH: EVQLVQSGAEVKKPGESLKISCKGSGYSFTSYWIGWVRQMPGKGLEWMGIIYPGDSDTRYSPSFQGQVTISADKSISTAYLQWSSLKASDTAMYYCARNPSLYSSPTDYWGQGTLVTVSS VL: not shown", "values": [{"measurement": "Live Virus IC50", "setting": "[1]", "value": "> 100", "unit": "µg/mL"}]}
{"binder": "2-A6 (antibody, V domains shown, also called bin S2) VH: QVTLRESGPALVKPTQTLTLTCTFSGFSLNTRGMSVSWIRQPPGKALEWLALIDWEDDKFYRTSLMTRLTISKDIFKNQVVLTMTNVDPVDTGTYYCARTYSVGVKYFGMDVWGQGTTVTVSS VL: SSELTQDPAVSVALGQTVRITCQGDSLRNYYASWYRQEPGQAPILLIYGGNYRPSGIPDRFSGSSSGNTASLTITGAQAEDEADYYCNSRDSSGNHVVFGGGTKLTVL", "values": [{"measurement": "Live Virus IC50", "setting": "[1]", "value": "> 100", "unit": "µg/mL"}]}
{"binder": "5-B6 (antibody, V domains shown) VH: QVQLVQSGAEVKKPGSSVKVSCKASGGTFSSYAISWVRQAPGQGLEWVGGIIPMFNSASYAQKFQGKVTITADKATNTAYMELSSLRSEDTAVYYCARESSGYYYVSNWFDPWGQGTLVTVSS VL: QSVLTQPSSVSGAPGQRVTISCTGSSSNIGAGYDVHWYQQIPGTAPRLLIYANSGRASGVPDRFSGSKSGTSASLAITGLQAEDEADYYCQSYDSSLSGVVFGGGTKLTVL", "values": [{"measurement": "Live Virus IC50", "setting": "[1]", "value": "> 100", "unit": "µg/mL"}]}
